A mixed list of measured activities; the numbers were collected in NIAID ChemDB.

All rows: growth or infection tests; organism: Mycobacterium tuberculosis

ECn is the concentration giving n% inhibition of infection, replication or growth. Percent inhibition refers to the dose given; in toxicity tests it is the harm to the cells. MIC50, MIC90 and the like: level of inhibition, or share of isolates inhibited. Two numbers with a dash give a range or band. MIC bound: limit read from a one-dose screen. Rows are shuffled and stem from different studies.

C[N+](C)(CCCCOc1ccccc1)CCCCOc1ccccc1.[Br-] ; strain: H37Rv ; read-out: MIC ; value: >100 µg/mL
COc1ccc2c(NN)ccnc2c1 ; strain: H37Rv ; cell line: VERO ; read-out: inhibition ; tested at: 12.5 µg/mL ; value: 97%
CC1COc2c(N3CCN(C)CC3)c(F)cc3c(=O)c(C(=O)O)cn1c23 ; strain: 08-685 ; method: agar ; read-out: MIC ; value: 1 µg/mL
Cc1ccnc2c1ccc1c(C)ccnc12 ; strain: H37Rv ; method: BACTEC ; read-out: MIC ; value: 1.6 µg/mL
CC(=O)Nc1ccc(C)cc1C ; strain: H37Rv ; read-out: MIC ; value: 100 µg/mL
CO[C@H]1/C=C/O[C@@]2(C)Oc3c(C)c(O)c4c(O)c(c(/C=N/N5CCN(C/C=C/c6ccccc6)CC5)c(O)c4c3C2=O)NC(=O)/C(C)=C\C=C\[C@H](C)[C@H](O)[C@@H](C)[C@@H](O)[C@@H](C)[C@H](OC(C)=O)[C@@H]1C ; strain: 2237 ; read-out: MBC ; value: 0.5 µg/mL
CC1COc2c(N3CCN(C)CC3)c(F)cc3c(=O)c(C(=O)O)cn1c23 ; strain: 44 isolates (resistant) ; read-out: Mean MIC ; value: 1.171 µg/mL
Cc1cc(NCCCCCCCCNc2cc(C)nc3cc(N(C)C)ccc23)c2ccc(N(C)C)cc2n1 ; strain: H37Rv ; method: BACTEC ; read-out: MIC ; value: 6.25 µg/mL
CO[C@H]1/C=C/O[C@@]2(C)Oc3c(C)c(O)c4c(=O)c(c5oc6cc(N7CCN(CC(C)C)CC7)cc(=O)c6nc5c4c3=C2O)NC(=O)/C(C)=C\C=C\[C@H](C)[C@H](O)[C@@H](C)[C@@H](O)[C@@H](C)[C@H](OC(C)=O)[C@@H]1C ; strain: 11 (ethambutol-resistant) ; read-out: MIC ; value: 0.0019 µg/mL
Nc1ccc(S(=O)(=O)c2ccccc2Cl)cc1 ; strain: H37Rv ; read-out: MIC ; value: 25 µg/mL
CCN(CC)c1cc2oc3cc(N)cc(=N)c-3nc2cc1C ; strain: INH-r ; read-out: MIC ; value: 0.8 µg/mL
O=C(O)c1ccccc1Oc1ccc([N+](=O)[O-])cc1 ; strain: H37Rv ; read-out: MIC ; value: 100 µg/mL
C[C@@H]1CN(c2ccccc2)C[C@H](C)OS(=O)O1 ; strain: H37Rv ; method: BACTEC ; read-out: MIC bound ; value: >12.5 µg/mL
CCOC(=O)C(CC)c1nc2ccccc2o1 ; strain: H37Rv ; read-out: MIC ; value: >100 µg/mL
O=[N+]([O-])c1ccc(NC(=S)N=Nc2c(O)[nH]c3ccc(OC(F)(F)F)cc23)cc1 ; strain: H37Rv ; method: broth dilution / resazurin ; read-out: EC50 ; value: 3.77 µg/mL
CO[C@H]1/C=C/O[C@@]2(C)Oc3c(C)c(O)c4c(=O)c(c5oc6cc(N7CCN(CC(C)C)CC7)cc(=O)c6nc5c4c3=C2O)NC(=O)/C(C)=C\C=C\[C@H](C)[C@H](O)[C@@H](C)[C@@H](O)[C@@H](C)[C@H](OC(C)=O)[C@@H]1C ; strain: FUJII ; read-out: MIC ; value: 0.002 µg/mL
NNC(=O)c1ccncc1 ; strain: PR118 ; read-out: MIC ; value: 0.16 µg/mL
NC[C@H]1O[C@H](O[C@H]2[C@H](O)[C@@H](O[C@H]3O[C@H](CO)[C@@H](O)[C@H](N)[C@H]3O)[C@H](N)C[C@@H]2N)[C@H](O)[C@@H](O)[C@@H]1O ; strain: Isolate 15 ; read-out: MIC ; value: 2 µg/mL
COc1ccc2cc([N+](=O)[O-])c3ccc(=O)oc3c2c1 ; strain: H37RvEr ; method: resazurin ; read-out: MIC ; value: 25 µg/mL
O=C1c2ccccc2C(=O)c2cc(C[P+](c3ccccc3)(c3ccccc3)c3ccccc3)ccc21 ; strain: XZ06008 ; changes: Extensively drug-resistant ; method: resazurin ; read-out: MIC ; value: 2 µg/mL
CO[C@H]1/C=C/O[C@@]2(C)Oc3c(C)c(O)c4c(O)c(c(/C=N/N5CCN(C6CCCC6)CC5)c(O)c4c3C2=O)NC(=O)/C(C)=C\C=C\[C@H](C)[C@H](O)[C@@H](C)[C@@H](O)[C@@H](C)[C@H](OC(C)=O)[C@@H]1C ; strain: H37Rv ; read-out: MIC ; value: 1.25 µg/mL
Nc1ccc(S(=O)(=O)c2ccc(N)cc2Cl)cc1 ; strain: H37Rv ; read-out: MIC ; value: 25 µg/mL
Nc1ncccc1/C=C/C(=O)c1ccc2c(ccc3ccccc32)c1 ; read-out: EC50 ; value: <12.5 µg/mL
COc1cc2c3c(cc4cc5c(cc4c3c1OC)OCO5)N(C=O)CC2 ; strain: H37RvRr ; method: resazurin ; read-out: MIC ; value: >50 µg/mL
CCCCCCCN1C(=O)c2ccnnc2Oc2ccc3ccccc3c21 ; strain: H37Rv ; method: BACTEC ; read-out: inhibition ; tested at: 12.5 µg/mL ; value: 0%
Cc1nnc(-n2cccc2)s1 ; strain: H37Rv ; method: BACTEC ; read-out: MIC bound ; value: >12.5 µg/mL
Cc1cc(NN)c2cc(F)ccc2n1 ; strain: H37Rv ; cell line: VERO ; read-out: inhibition ; tested at: 12.5 µg/mL ; value: 69%
CCCCCCCCCN1C(=O)c2cc(Cl)nnc2Oc2ccc(Cl)cc21 ; strain: H37Rv ; method: BACTEC ; read-out: inhibition ; tested at: 12.5 µg/mL ; value: 63%
OC1c2ccccc2OC2(N3CCCC3)CCCCC12 ; strain: H37Rv ; method: BACTEC ; read-out: MIC bound ; value: >12.5 µg/mL
NC(=O)c1cnccn1 ; strain: W7804 ; read-out: MIC ; value: 30 µg/mL
COC1OC2COc3ccccc3OC2C2N=C(N)SC12 ; strain: H37Rv ; method: BACTEC ; read-out: MIC bound ; value: >12.5 µg/mL
CCN(CC)c1ccc(/C=N/Nc2cc(C)nc3cc(Cl)ccc23)cc1 ; strain: H37Rv ; cell line: VERO ; read-out: MIC ; value: 6.25 µg/mL
C/C=C1/C(=O)O[C@]23C=C[C@@H]4C(C(=O)OC)=CO[C@H](O[C@@H]12)[C@@H]43 ; strain: MDR3 clinical isolate ; method: MTT ; read-out: MIC ; value: 1.5 µg/mL
NNC(=O)c1ccncc1 ; strain: PMH29 ; read-out: MIC ; value: 0.025 µg/mL
CC(C)N=c1cc2n(-c3ccc(Cl)cc3)c3ccccc3nc-2cc1Nc1ccc(Cl)cc1 ; strain: MDR14 ; method: broth dilution / resazurin ; read-out: MIC ; value: 0.5 µg/mL
COc1ccc(OC)c2[nH]c(Sc3c([N+](=O)[O-])ncn3C)nc12 ; strain: H37Rv ; method: BACTEC ; read-out: MIC bound ; value: >12.5 µg/mL
CC(=O)Nc1cccc2ccc(O)cc12 ; strain: H37Rv ; read-out: MIC ; value: 25 µg/mL
CNC(=S)N=Nc1c(O)n(C)c2ccc(C)cc12 ; strain: H37Rv ; method: broth dilution / resazurin ; read-out: EC50 ; value: >100 µg/mL
CC(=O)Nc1ccc(S(=O)(=O)/C(=C/c2ccc(-c3ccc(Br)cc3)o2)c2ccc([N+](=O)[O-])o2)cc1 ; strain: H37Rv ; method: BACTEC ; read-out: inhibition ; tested at: 12.5 µg/mL ; value: 64%
Oc1c(N=NC(=S)Nc2ccc(F)cc2)c2cc(OC(F)(F)F)ccc2n1CN1CCOCC1 ; strain: H37Rv ; method: broth dilution / resazurin ; read-out: EC90 ; value: 3.057 µg/mL
C[C@H]1C(=O)O[C@@H]2CCN3CC=C(COC(=O)[C@](C)(O)[C@]1(C)O)[C@H]23 ; strain: H37Rv ; read-out: MIC ; value: >100 µg/mL
CCCCCN1C(=O)c2ccnnc2Oc2cc(C)ccc21 ; strain: H37Rv ; method: BACTEC ; read-out: inhibition ; tested at: 12.5 µg/mL ; value: 34%
CO[C@H]1/C=C/O[C@@]2(C)Oc3c(C)c(O)c4c(O)c(c(/C=N/N5CCN(C)CC5)c(O)c4c3C2=O)NC(=O)/C(C)=C\C=C\[C@H](C)[C@H](O)[C@@H](C)[C@@H](O)[C@@H](C)[C@H](OC(C)=O)[C@@H]1C ; strain: Strep-r ; method: resazurin ; read-out: MIC ; value: 0.05–0.1 µg/mL
Cc1cc(-c2c(Br)cc(C(=O)O)n2C)on1 ; strain: H37Rv ; method: BACTEC ; read-out: inhibition ; tested at: 6.25 µg/mL ; value: 24%
O=C(O)c1ccccc1C(=O)c1ccc(Cl)c2ccccc12 ; strain: H37Rv ; read-out: MIC ; value: 100 µg/mL
C=CCNC(=S)N=Nc1c(O)[nH]c2ccc(C)cc12 ; strain: H37Rv ; method: broth dilution / resazurin ; read-out: EC90 ; value: >100 µg/mL
CC(C)c1cc(C(C)C)c(/C=N/NC(N)=O)c(C(C)C)c1 ; strain: H37Rv ; read-out: MIC ; value: >100 µg/mL
O=C(/C=C/c1ccccc1)c1cc(Br)ccc1O ; strain: H37Rv ; read-out: inhibition ; tested at: 12.5 µg/mL ; value: 68%
COc1ccc2c(N/N=C/c3ccc4c(c3)OCO4)cc(C)nc2c1 ; strain: H37Rv ; cell line: VERO ; read-out: inhibition ; tested at: 12.5 µg/mL ; value: 100%
Cc1cccc(/C=N/NC(=S)N(C)C)n1.[Cl][Cu][Cl] ; strain: V4207 ; read-out: MIC90 ; value: 1.56 µM
Cn1c(O)c(N=NC(=S)NCc2ccccc2)c2cc(OC(F)(F)F)ccc21 ; strain: H37Rv ; method: broth dilution / resazurin ; read-out: EC50 ; value: 7.299 µg/mL
CN(C)C1CCc2ccc3ccccc3c2C1O.Cl ; strain: H37Rv ; read-out: MIC ; value: 100 µg/mL
O=c1c(Cl)cc2nc3ccccc3sc-2c1Cl ; strain: H37Rv ; method: BACTEC ; read-out: inhibition ; tested at: 12.5 µg/mL ; value: 99%
C[C@H]1COc2c(N3CCN(C)CC3)c(F)cc3c(=O)c(C(=O)O)cn1c23 ; strain: Isolate 5 ; read-out: MIC ; value: 0.5 µg/mL
COc1ccc(/C=C/C(=O)c2ccc(Br)cc2O)cc1 ; read-out: EC50 ; value: >12.5 µg/mL
CCN(CCO)CCNc1ccc(C)c2sc3cc(OC)ccc3c(=O)c12 ; strain: H37Rv ; method: BACTEC ; read-out: MIC bound ; value: ≤12.5 µg/mL
CCN=c1cc2n(-c3ccc(C(F)(F)F)cc3)c3ccccc3nc-2cc1Nc1ccc(C(F)(F)F)cc1 ; strain: 2230 ; setting: multidrug-resistant ; read-out: MIC ; value: ≤0.06 µg/mL
NNC(=O)CSc1ncnc2nc[nH]c12 ; strain: H37Rv ; method: BACTEC ; read-out: MIC ; value: ≥12.5 µg/mL
NNC(=O)c1ccncc1 ; strain: Isolate 11 ; read-out: MIC ; value: 2 µg/mL
O=C(O)CCCCC1CCSS1 ; strain: H37Rv ; method: BACTEC ; read-out: MIC bound ; value: >12.5 µg/mL
Cc1ccccc1NC(=O)C(=O)O ; strain: H37Rv ; read-out: MIC ; value: >100 µg/mL
C1CCNC1.S=C(S)N1CCCC1 ; strain: TAC-R ; read-out: MIC ; value: 0.2 µg/mL
COc1c(N2CCNC(C)C2)c(F)cc2c(=O)c(C(=O)O)cn(C3CC3)c12 ; strain: Strain 448 ; read-out: MIC ; value: 0.125 µg/mL
CCCCNC(=S)N=Nc1c(O)[nH]c2ccc(OC(F)(F)F)cc12 ; strain: H37Rv ; method: broth dilution / resazurin ; read-out: EC90 ; value: >100 µg/mL
CCN(CC)CCN(C)c1ccc(CO)c2sc3cc(Cl)ccc3c(=O)c12 ; strain: H37Rv ; method: BACTEC ; read-out: MIC ; value: 12.5 µg/mL
Cc1ccc(Nc2ccc3c4c2C(=O)c2ccccc2-c4c(-c2ccccc2)c(=O)n3C)c(S(=O)(=O)O)c1.N ; strain: H37Rv ; read-out: MIC ; value: 50 µg/mL
COc1ccc(-c2coc3c4c(c(CC=C(C)C)c(OC)c3c2=O)OC(C)(C)C=C4)cc1 ; strain: H37Rv ; method: BACTEC ; read-out: MIC ; value: ≥12.5 µg/mL
CO/N=C1\CN(c2nc3c(cc2F)c(=O)c(C(=O)O)cn3C2CC2)CC1CN ; strain: 250 isolates ; read-out: Mean MIC ; value: 5.12 µg/mL
Cc1cc(C(=O)O)c2c(ccc3ccccc32)n1 ; strain: H37Rv ; read-out: MIC ; value: 50 µg/mL
COc1ccc2c(c1)[n+](=O)c(C(=O)C/C(=N\NC(=O)C[N+](C)(C)C)C(=O)Nc1cc(Cl)ccc1Cl)c(C)n2[O-].[Cl-] ; strain: H37Rv ; method: BACTEC ; read-out: MIC bound ; value: >12.5 µg/mL
CO[C@H]1/C=C/O[C@@]2(C)Oc3c(C)c(O)c4c(O)c(c(/C=N/N5CCN(C6CCCC6)CC5)c(O)c4c3C2=O)NC(=O)/C(C)=C\C=C\[C@H](C)[C@H](O)[C@@H](C)[C@@H](O)[C@@H](C)[C@H](OC(C)=O)[C@@H]1C ; strain: L212 ; read-out: MIC ; value: 0.1 µg/mL
S=C(Nc1ccc(I)cc1)Nc1ccc(I)cc1 ; strain: H37Rv ; read-out: MIC ; value: >100 µg/mL
CCCCCCCN1C(=O)c2ccnnc2Oc2cc(C)ccc21 ; strain: H37Rv ; method: BACTEC ; read-out: inhibition ; tested at: 12.5 µg/mL ; value: 1%
O=C(O)c1cc(C(=O)O)cc([N+](=O)[O-])c1 ; strain: H37Rv ; read-out: MIC ; value: >100 µg/mL
FC(F)(F)COP1(OCC(F)(F)F)=NP(OCC(F)(F)F)(OCC(F)(F)F)=NP(OCC(F)(F)F)(OCC(F)(F)F)=N1 ; strain: H37Rv ; method: BACTEC ; read-out: MIC ; value: ≥128 µg/mL
CCCCCCCCCc1c(N)[nH]c(=S)[nH]c1=O ; strain: H37Rv ; read-out: MIC ; value: >100 µg/mL
COc1ccc(/C=C/C(=O)c2ccccc2F)cc1 ; read-out: inhibition ; tested at: 12.5 µg/mL ; value: 82%
O=c1cn[nH]c2c(Br)cc(Br)cc12 ; strain: H37Rv ; read-out: MIC ; value: 50 µg/mL
NNC(=O)c1ccncc1 ; strain: Strain 102 ; read-out: MIC ; value: 0.06 µg/mL
O=C(O)c1cc(Cl)sc1Cl ; strain: H37Rv ; read-out: MIC ; value: >100 µg/mL
O=NNc1ccc(Sc2ccc(NN=O)nc2)cc1 ; strain: H37Rv ; method: BACTEC ; read-out: inhibition ; tested at: 12.5 µg/mL ; value: 28%
Nc1cc(C(=O)c2ccccc2C(=O)O)ccc1NS(=O)(=O)c1ccccc1 ; strain: H37Rv ; read-out: MIC ; value: >100 µg/mL
O=C1c2c(O)cc(O)cc2O[C@H](c2ccc(O)cc2)[C@H]1c1c(O)cc(O)c2c(=O)cc(-c3ccc(O)c(O)c3)oc12 ; read-out: EC50 ; value: >12.5 µg/mL